Test results published in patent publication US8932597B2 (priority 2008, dated 2015).

System: HuM2e antibody 8I10
Assay: CLIPS (PepScan) peptide ELISA, binding to antibody 8I10
Design: species or system human
Conditions: concentration not given

CSLLTEVGSLLTEV
Binding to 8I10 (in words): best 8I10 binder
